Anti-infective test results gathered from many reports (values: NIAID ChemDB through PubChem).

All rows: tests in culture; organism: Mycobacterium tuberculosis

MIC bound: limit read from a one-dose screen. ECn: concentration that inhibits the pathogen or its effect by n%. Inhibition is in % at the dose shown (toxicity tests: loss of growth or viability). MIC50, MIC90 and the like: level of inhibition, or share of isolates inhibited. Fold resistance has wild type as its base. Rows are shuffled and stem from different studies. Blank or dashed fields: not listed here.

structure | tested at | strain or isolate | read by | endpoint | changes | cell line | setting | result
CC(C)C[C@@H]1NC(=O)[C@H](Cc2c[nH]c3ccccc23)NC(=O)[C@@H](CCCCN)NC(=O)[C@H](CC(N)=O)NC(=O)[C@H](C(C)C)NC(=O)[C@@H](CC(C)C)NC1=O |  | HN878 | turbidity | MIC90 |  |  |  | 2.97 µM
COc1ccc2cc1-c1cc(cc(Br)c1O)C[C@H]1c3cc4c(cc3CCN1C)Oc1c(OC)cc3c(c1O4)[C@H](C2)N(C)CC3 |  | H37Rv-ETA-R ATCC 35830 | resazurin | MIC |  |  |  | 3.1 µg/mL
Nc1ccc(C(=O)N/N=C/c2ccccc2)cc1 |  | H37Rv |  | MIC |  |  |  | >12.5 µg/mL
CCc1nc2ccc(C)cc2n1CCCSc1ccc(OC)cc1 |  | H37Rv | turbidity / fluorescence | fold resistance | Rv1339 V90M |  |  | 1.5
CC1COc2c(N3CCN(C)CC3)c(F)cc3c(=O)c(C(=O)O)cn1c23 |  | 2923-5 |  | MIC |  |  |  | 1 µg/mL
CC(=O)N1c2ccccc2S(=O)(=O)c2c1ccc1ccccc21 |  | H37Rv | BACTEC | MIC |  |  |  | >12.5 µg/mL
CCN1CCc2c(sc(NC(=O)c3c(F)c(F)c(F)c(F)c3F)c2C(N)=O)C1 | 14 µM | ATCC 35822 INH-R2 isoniazid-resistant | turbidity | inhibition |  |  |  | 90%
O=C(/C=C/c1ccc(F)cc1Cl)c1ccccc1 |  | H37Rv | resazurin | MIC |  |  | 14 d | 32 µg/mL
NC1=NNC(=O)/C1=C\c1ccccc1 | 12.5 µg/mL | H37Rv | BACTEC | inhibition |  |  |  | 64%
CCn1cc(C(=O)O)c(=O)c2cc(F)c(N3CCNCC3)cc21 |  | 22 isolates |  | MIC90 |  |  |  | 4 µg/mL
O=C(O)c1ccccc1O |  | 7800 |  | EC50 |  |  |  | >200 µM
C=C(C)[C@@H]1CC[C@]2(C)CC[C@]3(C)[C@H](CC[C@@H]4[C@@]5(C)CC[C@H](OC(C)=O)C(C)(C)[C@@H]5CC[C@]43C)[C@@H]12 |  | H37Rv |  | MIC |  |  |  | >128 µM
CC1=CC2c3c([nH]c(=S)[nH]c3=O)OC(C)(C)C2CC1 |  | H37Rv | BACTEC | MIC bound |  |  |  | >12.5 µg/mL
CCCCCCc1ccc(Oc2ccccc2)c(O)c1 |  | NHN20 |  | MIC99 |  |  |  | 3.1 µg/mL
CCc1nc2ccccc2n1CCCCOc1ccc(Cl)cc1C |  | H37Rv | turbidity / fluorescence | fold resistance | QcrB M342T |  |  | >7.7
NC(=O)SCC(=O)NNc1ccccc1 |  | H37Rv | BACTEC | MIC |  |  |  | 12.5 µg/mL
C=C1C(=O)O[C@@H]2C[C@@]3(C)C=CC(=O)C(=C)[C@@H]3C[C@H]12 |  | H37Rv |  | MIC |  |  |  | 16 µg/mL
Cc1ncc([N+](=O)[O-])n1C(C)C(=O)Nc1ccc(N(CCCl)CCCl)cc1 | 6.25 µg/mL | H37Rv | resazurin | inhibition |  |  |  | 1%
CC(=O)/C(N=Nc1ccc(C(=O)N/N=C/c2ccncc2)cc1)=C(\C)O |  | H37Rv |  | MIC |  |  |  | >12.5 µg/mL
O=C(/C=C/c1ccccc1Cl)c1ccc(F)cc1 |  | H37Rv | resazurin | MIC |  |  | 14 d | 32 µg/mL
CC1=N/C(=C/c2ccc3c(c2)OCO3)C(=O)O1 | 12.5 µg/mL | H37Rv | BACTEC | inhibition |  |  |  | 8%
CC(C)C[C@@H]1NC(=O)[C@H](Cc2c[nH]c3ccccc23)NC(=O)[C@@H](CCCN)NC(=O)[C@H](CC(N)=O)NC(=O)[C@H](C(C)C)NC(=O)[C@@H](CC(C)C)NC1=O |  | HN878 | turbidity | MIC90 |  |  |  | 2.97 µM
CCNC(=O)c1c(NC(=O)c2c(F)c(F)c(F)c(F)c2F)sc2c1CCN(CC)C2 |  | H37Rv | turbidity | EC50 | gyrA mutant (D94N) |  |  | 4.4 µM
COC/C=C(\C)CCC[C@H](C)CCC[C@H](C)CCCC(C)C |  | H37Rv |  | MIC |  |  |  | 16 µg/mL
O=C(/C=C/c1ccc(F)cc1)c1ccc(F)cc1 |  | H37Rv | resazurin | MIC |  |  | 7 d | 32 µg/mL
CC(C)C[C@@H]1NC(=O)[C@H](Cc2c[nH]c3ccccc23)NC(=O)[C@H](CCCCN)NC(=O)[C@H](CC(N)=O)NC(=O)[C@H](C(C)C)NC(=O)[C@@H](CC(C)C)NC1=O |  | H37Ra | turbidity | EC50 |  |  |  | >30 µM
CCOC(=O)c1c(NC(=O)C2C=C(C(F)(F)F)C=C2C(F)(F)F)sc2c1CCN(C(=O)OC(C)(C)C)C2 |  | H37Rv | resazurin | MIC |  |  |  | >100 µg/mL
CC(=O)O[C@H]1CC[C@]2(C)[C@H]3CC[C@@H]4[C@H]5[C@H](C(C)=O)CC[C@]5(C)CC[C@@]4(C)[C@]3(C)CC[C@H]2C1(C)C |  | H37Rv |  | MIC |  |  |  | >128 µM
CCc1nc2ccccc2n1CCCCOc1ccc(C)c(Cl)c1 |  | H37Rv | turbidity / fluorescence | fold resistance | Rv1339 V90M |  |  | 0.6
Cc1ccc(C(=O)/C=C/c2ccccc2)cc1 |  | H37Rv | resazurin | MIC |  |  | 14 d | 32 µg/mL
Cc1cccc2c(CN3CC[C@@H](NS(C)(=O)=O)C3)c(-c3ccccc3)[nH]c12 |  |  |  | MIC |  |  |  | 3.1 µM
O=C(/C=C/c1ccc(F)cc1)c1ccc(O)cc1 |  | H37Rv | MTT | MIC |  |  | 14 d | 32 µg/mL
C[C@@H]1CC[C@H]2O[C@]23C(=O)O[C@H]2OC(C)(C)[C@H]([C@@H]2O)[C@@]13C |  | H37Rv | BACTEC | MIC |  |  |  | ≥12.5 µg/mL
CC(C)C[C@@H]1NC(=O)[C@H](Cc2c[nH]c3ccccc23)NC(=O)[C@@H](CCCN=C(N)N)NC(=O)[C@H](CC(N)=O)NC(=O)[C@H](C(C)C)NC(=O)[C@@H](CC(C)C)NC1=O |  | CDC1551 | turbidity | EC50 |  |  |  | 0.71 µM
CCOC(=O)/C=C/c1ccc(OC)cc1 |  | BTB09-382 | resazurin | MIC |  |  |  | 485 µM
CC(C)=CCOc1c2ccoc2cc2oc(=O)ccc12 |  | H37Rv clinical isolate CRY2 | resazurin | MIC100 | Isoniazid-resistant |  |  | 100 µg/mL
NC(=O)c1cnccn1 |  | M142 |  | MIC |  |  |  | 8 µg/mL
CCc1nc2ccc(C)cc2n1CCCCSc1ccc(OC)cc1 |  | H37Rv | turbidity / fluorescence | MIC90 | Rv1339 V90M |  |  | 10 µM
CCOC(=O)C(NC(=O)C(CO)n1c(-c2ccccc2)c(-c2ccccc2)oc1=O)C(=O)OCC |  | H37Rv | BACTEC | MIC bound |  |  |  | >12.5 µg/mL
CCOC(=O)c1c(NC(=O)c2c(F)c(F)c(F)c(F)c2F)sc2c1CCNC2=O |  | ATCC 35822 | turbidity | EC90 |  |  |  | 1.4 µM
CO[C@H]1/C=C/O[C@@]2(C)Oc3c(C)c(O)c4c(O)c(c(/C=N/N5CCN(C)CC5)c(O)c4c3C2=O)NC(=O)/C(C)=C\C=C\[C@H](C)[C@H](O)[C@@H](C)[C@@H](O)[C@@H](C)[C@H](OC(C)=O)[C@@H]1C |  | 22 strains (rifampicin-susceptible) |  | MIC50 |  |  |  | ≤0.05 µg/mL
CO[C@H]1/C=C/O[C@@]2(C)Oc3c(C)c(O)c4c(O)c(c(/C=N/N5CCN(C)CC5)c(O)c4c3C2=O)NC(=O)/C(C)=C\C=C\[C@H](C)[C@H](O)[C@@H](C)[C@@H](O)[C@@H](C)[C@H](OC(C)=O)[C@@H]1C |  | H37Ra | turbidity | EC50 |  |  |  | 0.04 µM
CCc1nc2ccc(C)cc2n1CCCCOc1ccccc1 |  | H37Rv | turbidity / fluorescence | MIC90 | WT |  |  | 1.3 µM
CO[C@H]1/C=C/O[C@@]2(C)Oc3c(C)c(O)c4c(O)c(c5c(c4c3C2=O)NC2(CCN(CC(C)C)CC2)N=5)=NC(=O)/C(C)=C\C=C\[C@H](C)[C@H](O)[C@@H](C)[C@@H](O)[C@@H](C)[C@H](OC(C)=O)[C@@H]1C |  | Isolate 900240 drug-susceptible |  | MIC |  |  |  | 0.063 µg/mL
C[C@H](CC[C@H]1OC1(C)C)[C@H]1CC[C@@]2(C)[C@@H]3CC[C@H]4C(C)(C)[C@H](O)CC[C@@]45C[C@@]35CC[C@]12C |  | H37Rv |  | MIC |  |  |  | 8 µg/mL
NC(N)=NC(N)=Nc1ccc(S(=O)(=O)c2ccc(N=C(N)N=C(N)N)cc2)cc1 |  |  | resazurin | MIC bound |  |  |  | >6.25 µg/mL
C=C1CCC[C@]2(C)C[C@H]3OC(=O)C(C)[C@H]3C[C@@H]12 |  | H37Rv |  | MIC |  |  |  | >128 µg/mL
CCOC(=O)c1c(NC(=O)c2c(F)c(F)c(F)c(F)c2F)sc2c1CCOC2 |  | H37Rv | turbidity | EC90 | katG Y155 truncation mutant |  |  | 0.4 µM
O=C1Nc2cc3c(cc2C(=O)N2C/C(=N\O)CC12)OCO3 |  | H37Rv | BACTEC | MIC bound |  |  |  | >12.5 µg/mL
CN(C)c1ccc(/C=C/C/C=N/NC(=O)c2ccc(N)cc2)cc1 |  | H37Rv |  | EC50 |  |  |  | <12.5 µg/mL
C=CCNC(=S)/N=C/C(C(=O)Nc1ccccc1OC)=C(/C)O | 6.25 µg/mL | H37Rv | resazurin | inhibition |  |  |  | -17%
CCc1nc2ccccc2n1CCCCNCc1ccccc1 |  | H37Rv | turbidity / fluorescence | MIC99 |  |  |  | >20 µM
Nc1nc(-n2cc(C(=O)O)c(=O)c3cc(F)c(N4CC(O)C4)c(Cl)c32)c(F)cc1F |  | 23 strains (rifampicin-resistant) |  | MIC50 |  |  |  | 1.56 µg/mL
CO[C@H]1/C=C/O[C@@]2(C)Oc3c(C)c(O)c4c(=O)c(c5oc6cc(N7CCN(CC(C)C)CC7)cc(=O)c6nc5c4c3=C2O)NC(=O)/C(C)=C\C=C\[C@H](C)[C@H](O)[C@@H](C)[C@@H](O)[C@@H](C)[C@H](OC(C)=O)[C@@H]1C |  | H37Rv |  | MIC |  |  |  | 0.004 µg/mL
O=C(/C=C/c1ccc(F)cc1Cl)c1ccc(F)cc1 |  | H37Rv | resazurin | MIC |  |  | 21 d | 32 µg/mL
CCN1CCc2c(sc(NC(=O)c3c(F)c(F)c(F)c(F)c3F)c2C(=O)NC)C1 |  | H37Rv | turbidity | EC90 | gyrA mutant (D94N) |  |  | 3.8 µM
CC(=O)/C(N=Nc1ccc(C(=O)N/N=C/c2ccc(O)cc2)cc1)=C(\C)O |  | H37Rv |  | EC50 |  |  |  | <12.5 µg/mL
O=C(/C=C/c1c(F)cccc1Cl)c1ccc(F)cc1 |  | H37Rv | resazurin | MIC |  |  | 14 d | 64 µg/mL
Cc1cccc2c1N=C(c1ccccc1)C2CN1CCC(NS(=O)(=O)C(C)C)C1 |  |  |  | MIC |  |  |  | 3.12 µM
CC(=O)N1CCNC(=O)/C1=C1\CCOC1=O |  | H37Rv | BACTEC | MIC |  |  |  | ≥12.5 µg/mL
C[C@H]1CC[C@@H]2[C@]1(C)CC[C@@]1(C)CC[C@@](C)(O)[C@@H]3C[C@@]231 |  | H37Rv |  | MIC |  |  |  | 20 µg/mL
COCCNC1CCN(CC2C(c3ccccc3)=Nc3c(C)cccc32)C1 |  |  |  | MIC |  |  |  | 3.12 µM
O=C(NC(=S)c1ccc[nH]1)Nc1ccccc1 | 6.25 µg/mL | H37Rv | resazurin | inhibition |  |  |  | 48%
NNC(=O)c1ccncc1 |  | Isolate K |  | MIC |  |  |  | 0.062 µg/mL
COc1cc2ccc1OCc1cccc(n1)COc1ccc(cc1OC)C=NCCNCCN=C2 |  | H37Rv | BACTEC | MIC |  |  |  | 6.25 µg/mL
CCN1CCc2c(sc(NC(=O)c3c(F)c(F)c(F)c(F)c3F)c2C#N)C1 |  | H37Rv | turbidity | EC50 | gyrA mutant (D94N) |  |  | 8.4 µM
CCC1C[N+]2=C(c3cc(OC)c(OC)cc3CC2)c2c1cc1n2CCc2cc(OC)c(OC)cc2-1 |  | H37Rv |  | MIC |  | VERO |  | 2 µg/mL
COc1ccc2cc1-c1cc(ccc1O)C[C@@H]1NCCc3cc4c(cc31)Oc1c(c(OC)cc3c1[C@H](C2)N(C)CC3)O4 |  | H37Rv | resazurin | MIC |  |  |  | 3.1 µg/mL
Cc1ccc(N2C(=O)C3C(C2=O)C2(Cl)C(Cl)=C(Cl)C3(Cl)C2(Cl)Cl)cc1Cl | 12.5 µg/mL | H37Rv | BACTEC | inhibition |  |  |  | 0%
COC(=O)[C@H](CCC=C(C)C)[C@H]1[C@@H]2[C@H](C[C@]3(C)C4=CC[C@H]5C(C)(C)C(=O)CC[C@]5(C)C4CC[C@@]23C)O[C@@H]1O |  | H37Rv |  | MIC |  |  |  | 16 µg/mL
C=C(C)[C@@H]1CC[C@@]2(C)[C@H]1[C@H]1CC[C@@H]3[C@@]4(C)CC[C@H](O)C(C)(C)[C@@H]4CC[C@@]3(C)[C@]1(C)C[C@@H]2O | 12.5 µg/mL | H37Rv | BACTEC | inhibition |  |  |  | 89%
N#Cc1c(NC(=O)c2c(F)c(F)c(F)c(F)c2F)sc2c1CCOC2 |  | ATCC35838 | turbidity | EC50 |  |  |  | 3.4 µM
Nc1nc2nc3c(nc2c(=O)[nH]1)CN(C1CCCCC1)C3=O | 12.8 µg/mL | H37Rv | BACTEC | inhibition |  |  |  | 16%
NNC(=O)c1ccncc1 |  | W210 |  | MIC99 |  |  |  | 0.03 µg/mL
Cc1cccc(Cl)c1N=Nc1c(C)nn(C(N)=S)c1C | 12.5 µg/mL | H37Rv | BACTEC | inhibition |  |  |  | 51%
Cc1cc(-n2cccn2)cnc1S(=O)(=O)NC1CCN(Cc2ccncc2)CC1 |  |  |  | MIC |  |  |  | 6.25 µM
COc1cc(N=Nc2ccccc2)cc(/C=N/NC(=O)c2cccnc2)c1O | 12.5 µg/mL | H37Rv | BACTEC | inhibition |  |  |  | 11%
C=C1C(=O)OC2C1CCC(C)C1(O)C=CC(=O)C21C |  | H37Rv |  | MIC |  |  |  | 64 µg/mL